Results on one substance are retold here after patent US20180142000.

The assay deals with C. jejuni (strain 81-176) flagella, Campylobacter jejuni strain 81-176.

In the case of FlagV1P, the fold increase in functional affinity against FlagV1M turned out to be 400 fold.
